Compound potency records, mixed from different reports. Data source: NIAID ChemDB in PubChem.

All rows: toxicity to cultured cells; cell line: VERO; endpoint: CC50

CCn is the concentration with n% toxicity to the cells. Rows are shuffled and stem from different studies. An empty or dashed field is not shown.

compound | read by | value
COC(=O)[C@H](C)NP(=O)(OC[C@H]1C/C1=C/n1cnc2c(N)nc(N)nc21)Oc1ccccc1 |  | 35 µM
C=Cc1c(C)c2cc3nc(c(C(=O)O)c4nc(cc5[nH]c(cc1[nH]2)c(C)c5CC)C(C)=C4C(=O)O)[C@@H](CCC(=O)O)[C@@H]3C |  | >100 µM
Nc1nc2c(ncn2C[C@H]2C[C@H]2CO)c(=O)[nH]1 |  | >100 µM
NC(=O)CSc1ncnc2c1cnn2CCCCO |  | >400 µg/mL
CN(C(=O)c1ccc([N+](=O)[O-])o1)c1ccccc1 |  | 23.75 µg/mL
COC(=O)C1=C(C)NC(=O)NC1c1cn(-c2ccccc2)nc1-c1ccc(C)cc1 |  | >10 µg/mL
Cc1nsc(C)c1C#N |  | 1000 µM
C[C@H](NC(=O)c1ccc([N+](=O)[O-])o1)c1ccccc1 |  | 25.63 µg/mL
O.O=C(Cc1csc2nc(-c3ccccc3)cn12)NN1C(=O)CSC12CCCCC2 |  | >10 µg/mL
CC(C1=NNC(=Nc2ccc(Cl)cc2)SC1)N1C(=O)c2ccccc2C1=O |  | 64.15 µg/mL
CC(=O)Nc1ccc(/C=N/NC(=O)Cn2nc(-c3ccccc3)c3c2-c2ccccc2S(=O)(=O)N3C)cc1 |  | ≥100 µM
CCC1CCC2(CC1)SC(C)C(=O)N2NC(=O)Cc1csc2nc(-c3ccccc3)cn12.O.O |  | 6.9 µg/mL
O=C(NCc1ccc(Cl)cc1)c1c[nH]c2ccc(CCCO)cc2c1=O |  | 42.7 µM
CSc1nsc(-c2ccc(O)cc2)c1C#N |  | 2 µM
Nc1nc(F)nc2c1ncn2[C@@H]1O[C@@H](CO)C=C1F |  | >100 µM
C/C(=N\NC(=O)c1ccncc1)c1cccc(CN2CCNCC2)c1O |  | >17.68 µM
COc1ccc(CNC(=O)c2ccc([N+](=O)[O-])o2)c(OC)c1 |  | 5.38 µg/mL
Cn1c2c(c(=O)n(C)c1=O)S[C@@H]1[C@H](O2)O[C@H](COc2ccccc2)[C@@H](OCc2ccccc2)[C@@H]1OCc1ccccc1 |  | >100 µM
COc1cccc(NC(=O)c2ccc([N+](=O)[O-])o2)c1 |  | 18.63 µg/mL
C/C(=N\NC(=O)c1ccncc1)c1cccc(CN(C)C)c1O |  | >20 µM
CC(C1=NNC(=NCc2ccc(Cl)cc2)SC1)N1C(=O)c2ccccc2C1=O |  | 192 µg/mL
CCOC(=O)C1=C(C)NC(=S)NC1c1cn(-c2ccccc2)nc1-c1ccc(C)cc1 |  | 8.9 µg/mL
N#Cc1cc(NC(=O)c2ccccc2)c(=O)n2c1[nH]c1ccccc12 |  | 4.8 µg/mL
NC(=S)N=Nc1c(O)n(CN2CCN(c3cc4c(cc3F)c(=O)c(C(=O)O)cn4C3CC3)CC2)c2ccc(Br)cc12 |  | >0.097 µM
O=C(Nc1ccc(Cl)cc1)N1CCCC[C@H]1[C@@H](O)c1cc(C(F)(F)F)nc2c(C(F)(F)F)cccc12 |  | 10 µM
Brc1ccc2cc(-c3ccccc3)cn2c1 | MTT | >500 µM
Nc1nc2c(ncn2[C@H]2O[C@@H](CO)C=C2F)c(=O)[nH]1 |  | >100 µM
O=C1c2ccccc2C(=O)N1CCCC1=NNC(=Nc2ccccc2)SC1 |  | >111 µg/mL
N#Cc1cc(C#N)c2[nH]c3ccccc3n2c1=O |  | 61 µg/mL
Cc1[nH]nc2ccc(NS(=O)(=O)CCCC(F)(F)F)cc12 |  | 160 µM
COC(=O)[C@H](C)NP(=O)(OCC1C/C1=C/n1cnc2c(=O)[nH]c(N)nc21)Oc1ccccc1 |  | >100 µM
Cc1cn(C[C@H]2C[C@H]2CO)c(=O)[nH]c1=O |  | >100 µM
O[C@@H](c1cc(C(F)(F)F)nc2c(C(F)(F)F)cccc12)[C@@H]1CCCCN1Cc1ccncc1 |  | 35 µM
O=c1ccn([C@@H]2O[C@@H](CO)C=C2F)c(=O)[nH]1 |  | >100 µM
CC(C1=NN/C(=N\c2ccccn2)SC1)N1C(=O)c2ccccc2C1=O |  | 333 µg/mL
CC1SC2(CCCCC2)N(NC(=O)Cc2csc3nc(-c4ccccc4)cn23)C1=O.O.O |  | >10 µg/mL
COC1c2ccccc2C(=O)N1C(C)C1=NNC(=Nc2ccccc2)SC1 |  | 160 µg/mL
CN1c2c(-c3ccccc3)nn(CC(=O)N/N=C/c3ccc(Cl)c(Cl)c3)c2-c2ccccc2S1(=O)=O |  | >100 µM
CCCc1nc2n(n1)C(c1ccccc1)CC(=O)N2 |  | >50 µg/mL
Nc1nc(Cl)c2ncn([C@H]3O[C@@H](CO)C=C3F)c2n1 |  | >100 µM
NC(=O)N=Nc1c(O)n(CN2CCN(c3cc4c(cc3F)c(=O)c(C(=O)O)cn4C3CC3)CC2)c2ccccc12 |  | >0.019 µM
FC(F)(F)c1cc(N2CCNCC2)c2cccc(C(F)(F)F)c2n1 |  | 62 µM
Nc1nc2c(ncn2C=C2CC2CO)c(=O)[nH]1 |  | 100 µM
CCOC(=O)C1=C(C)NC(=O)NC1c1cn(-c2ccccc2)nc1-c1ccc([N+](=O)[O-])cc1 |  | >10 µg/mL
CCCCc1ccc2cc(-c3ccccc3)cn2c1 | MTT | >500 µM
C/C(=N\NC(=O)c1ccncc1)c1cccc(CN2CCOCC2)c1O |  | >17.63 µM
COc1ccc(NC(=O)c2ccc([N+](=O)[O-])o2)cc1 |  | 21.44 µg/mL
CC(C1=NNC(=Nc2ccccc2)SC1)N1C(=O)c2ccc(Br)cc2C1=O |  | 192 µg/mL
Fc1ccccc1-c1cc2ccccn2c1 | MTT | 500 µM
Nc1ccn(C[C@H]2C[C@H]2CO)c(=O)n1 |  | >100 µM
CCCCCS(=O)(=O)Nc1ccc2n[nH]c(C(F)(F)F)c2c1 |  | 37 µM
CSc1nsc(-c2ccncc2)c1C#N |  | 2.5 µM
O=c1ccn(C[C@H]2C[C@H]2CO)c(=O)[nH]1 |  | >100 µM
Nc1nc2c(ncn2C[C@H]2CS[C@H](P(=O)(O)O)O2)c(=O)[nH]1 |  | >100 µg/mL
CCCCS(=O)(=O)Nc1cc2c(Cl)[nH]nc2cc1C |  | >170 µM
C=CCN=C1NN=C(C(C)N2C(=O)c3ccccc3C2=O)CS1 |  | 557 µg/mL
O=C1CC(c2ccc([N+](=O)[O-])cc2)n2nc(-c3ccncc3)nc2N1 |  | >50 µg/mL
O=C(NCc1ccc(Cl)cc1)c1c[nH]c2ccc(C#CCO)cc2c1=O |  | 48.9 µM
CN1c2c(-c3ccccc3)nn(CC(=O)N/N=C/c3c(Cl)cccc3Cl)c2-c2ccccc2S1(=O)=O |  | >100 µM
C/C(=N\NC(=O)c1ccncc1)c1cccc(CN2CCN(c3ccccn3)CC2)c1O |  | >14.52 µM
NC(=O)CCN(CCC(N)=O)S(=O)(=O)c1cccc(Nc2nc(Nc3cccc(S(=O)(=O)N(CCC(N)=O)CCC(N)=O)c3)nc(Nc3ccc(-c4ccc(Nc5nc(Nc6cccc(S(=O)(=O)N(CCC(N)=O)CCC(N)=O)c6)nc(Nc6cccc(S(=O)(=O)N(CCC(N)=O)CCC(N)=O)c6)n5)cc4S(=O)(=O)O)c(S(=O)(=O)O)c3)n2)c1 |  | 375 µg/mL
COC(=O)[C@H](C)NP(=O)(OCC1C/C1=C/n1cnc2c(N)ncnc21)Oc1ccccc1 |  | 1 µM
CC(=O)OC[C@H]1O[C@@H]2Oc3c(c(=O)n(C)c(=O)n3C)S[C@@H]2[C@@H](OC(C)=O)[C@H]1OC(C)=O |  | 61.7 µM
NC(=O)CN1CCCC[C@H]1[C@@H](O)c1cc(C(F)(F)F)nc2c(C(F)(F)F)cccc12 |  | >128 µM
COC(=O)n1c(C(=O)NC(C)C)nc2ccccc21 |  | 153 µM
CN1c2c(-c3ccccc3)nn(CC(=O)N/N=C/c3cccc([N+](=O)[O-])c3)c2-c2ccccc2S1(=O)=O |  | >100 µM
O=C1C(=O)N(CN2CCN(c3cc4c(cc3F)c(=O)c(C(=O)O)cn4C3CC3)CC2)c2ccc(Br)cc21 |  | >0.018 µM
FC(F)(F)c1cc(N2CCOCC2)c2cccc(C(F)(F)F)c2n1 |  | >128 µM
CC1=CC(=O)C=C(C/C=C(\C)CC/C=C(\C)CC/C=C(\C)CC[C@@H](C)C(C)(C)O)C1=O |  | 35 µM
O=C1C(=O)N(CN2CCN(c3cc4c(cc3F)c(=O)c(C(=O)O)cn4C3CC3)CC2)c2ccccc21 |  | >0.127 µM
CCC(Sc1ncnc2c1cnn2CCCCO)C(N)=O |  | >400 µg/mL
Fc1ccc2cc(-c3ccccc3)cn2c1 | MTT | >500 µM
CCCCCc1nc2n(n1)C(c1ccc([N+](=O)[O-])cc1)CC(=O)N2 |  | <50 µg/mL
NC1=NC2C(N=CN2[C@H]2C[C@@H](CCP(=O)(O)O)CO2)C(=O)N1 | MTT | >100 µg/mL
COc1cc2c(cc1OC)C1=NN(C(=O)Nc3ccc(Cl)cc3)C(c3ccncc3)C1C2 | MTT | >139.2 µM
OC[C@H]1OC(c2c(-c3ccccc3)cc3c(Cl)cc(C(F)(F)F)cn23)[C@H](O)[C@@H]1O | MTT | 172 µM
C/C(=N\NC(=O)c1ccncc1)c1cccc(CN(Cc2ccccc2)Cc2ccccc2)c1O |  | >13.46 µM
c1coc(-c2cc3ccccn3c2)c1 | MTT | >500 µM
O=C1CC(c2ccccc2)n2nc(-c3cccnc3)nc2N1 |  | >50 µg/mL
CCOC(=O)C1=C(C)NC(=O)NC1c1cn(-c2ccccc2)nc1-c1ccc(F)cc1 |  | >10 µg/mL
CSc1nsc(-c2cccnc2)c1C#N |  | 20 µM
Nc1ccn([C@@H]2O[C@@H](CO)C=C2F)c(=O)n1 |  | >100 µM
C/C(=N\NC(=O)c1ccncc1)c1cccc(CN2CCCCC2)c1O |  | >17.73 µM
N#Cc1ccc(-c2cc3ccccn3c2)cc1 | MTT | >500 µM
COc1cc2c(cc1OC)C1=NN(C(=O)Nc3ccc([N+](=O)[O-])cc3)C(c3ccccc3)C1C2 | MTT | 51.08 µM
Cc1ccc2c(c1)c(N=NC(N)=O)c(O)n2CN1CCN(c2cc3c(cc2F)c(=O)c(C(=O)O)cn3C2CC2)CC1 |  | >0.111 µM
CCCc1nc2n(n1)C(c1ccc(OC)cc1)CC(=O)N2 |  | >50 µg/mL
CC(=O)O[C@@H]1[C@@H](OC(C)=O)[C@H](C)O[C@@H]2Oc3c(c(=O)n(C)c(=O)n3C)S[C@@H]21 |  | >100 µM
CCCCCc1nc2n(n1)C(c1ccccc1)CC(=O)N2 |  | >50 µg/mL
O=C(Nc1ncco1)NC12CC3CC(CC(C3)C1)C2 | MTT | 22 µg/mL
COc1ccc(N=C2NN=C(C(C)N3C(=O)c4ccccc4C3=O)CS2)cc1 |  | 192 µg/mL
NC(=S)N=Nc1c(O)n(CN2CCN(c3cc4c(cc3F)c(=O)c(C(=O)O)cn4C3CC3)CC2)c2ccc(Cl)cc12 |  | >0.017 µM
COc1ccc(C2CC(=O)Nc3nc(-c4ccncc4)nn32)cc1 |  | >50 µg/mL
CC(C1=NNC(=Nc2ccc([N+](=O)[O-])cc2)SC1)N1C(=O)c2ccccc2C1=O |  | 192 µg/mL
COc1ccc(C2CC(=O)Nc3nc(-c4cccnc4)nn32)cc1 |  | >50 µg/mL
CN(C)c1cc(C(F)(F)F)nc2c(C(F)(F)F)cccc12 |  | >128 µM
CC(Sc1ncnc2c1cnn2COCCO)C(N)=O |  | >400 µg/mL
Nc1nc2c(ncn2C[C@H]2CC[C@@H](P(=O)(O)O)O2)c(=O)[nH]1 |  | >10 µg/mL
Cc1cn([C@H]2O[C@@H](CO)C=C2F)c(=O)[nH]c1=O |  | >100 µM
CC(=O)c1c(-c2ccc(C#N)cc2)cc2ccccn12 | MTT | >500 µM
C/C(=N\NC(=O)c1ccncc1)c1cccc(CN2CCN(Cc3ccccc3)CC2)c1O |  | >14.09 µM

Repeating the final 8 entries:

compound	read by	value
CC(C1=NNC(=Nc2ccc([N+](=O)[O-])cc2)SC1)N1C(=O)c2ccccc2C1=O		192 µg/mL
COc1ccc(C2CC(=O)Nc3nc(-c4cccnc4)nn32)cc1		>50 µg/mL
CN(C)c1cc(C(F)(F)F)nc2c(C(F)(F)F)cccc12		>128 µM
CC(Sc1ncnc2c1cnn2COCCO)C(N)=O		>400 µg/mL
Nc1nc2c(ncn2C[C@H]2CC[C@@H](P(=O)(O)O)O2)c(=O)[nH]1		>10 µg/mL
Cc1cn([C@H]2O[C@@H](CO)C=C2F)c(=O)[nH]c1=O		>100 µM
CC(=O)c1c(-c2ccc(C#N)cc2)cc2ccccn12	MTT	>500 µM
C/C(=N\NC(=O)c1ccncc1)c1cccc(CN2CCN(Cc3ccccc3)CC2)c1O		>14.09 µM